For the test, the system named is recombinant DXR enzyme. The test can be described thus: DXR enzyme activity assay. It counts as biochemical.

Read-outs that look alike come from different tables or passages of the source.

One may read the IC50 as the midpoint of a concentration-inhibition curve.

On to `CC(=O)N(O)CCCP(=O)(O)O`, for which the IC50 (read-out: S. chromogenes IC50 (mean ± SD), n=3, tested form: monosodium salt) was 360 nM and the IC50 (read-out: S. schleiferi IC50 (mean ± SD), n=3, tested form: monosodium salt) came out at 1000 nM.

The record behind these values is patent US12122799B2, “Antibiotics for veterinary staphylococcal infections” (THE GEORGE WASHINGTON UNIVERSITY, A CONGRESSIONALLY …, priority 2018, dated 2024).
